Anti-infective test results gathered from many reports (values: NIAID ChemDB through PubChem).

Common to all: toxicity to cultured cells; cell line: MT-4; measure: CC50

Blank or dashed fields: not listed here. Neighbouring rows are from separate reports. CCn: concentration that lowers growth or viability of the cells by n%.

{"SMILES": "Cc1cn([C@@H]2O[C@@H]3CN[C@H]4CS(=O)(=O)O[C@]43[C@H]2O[Si](C)(C)C(C)(C)C)c(=O)[nH]c1=O", "value": ">125 µM"}
{"SMILES": "CCC[C@@]1(CCc2ccccc2)CC(O)=C([C@H](CC)c2cccc(NS(=O)(=O)c3ccc(C(F)(F)F)cn3)c2)C(=O)O1", "value": "18.6 µM"}
{"SMILES": "CC(C)c1nc(COC(=O)N[C@H](C(=O)N[C@@H](Cc2ccccc2)[C@H](O)CN2CCN(Cc3cncs3)C[C@H]2C(=O)NC(C)(C)C)C(C)C)cs1", "value": "68.95 µM"}
{"SMILES": "Cc1c(Cc2cccc3ccccc23)n(COCCO)c(=O)[nH]c1=O", "value": "205 µM"}
{"SMILES": "Cc1ccc(/C=C/C(=O)C2CCC3C4CC=C5C[C@@H](O)CC[C@]5(C)C4CC[C@]23C)cc1", "value": "55.38 µM"}
{"SMILES": "CCCCCO[C@]12CS(=O)(=O)O[C@@]13[C@@H](CN2)O[C@@H](n1cc(C)c(=O)[nH]c1=O)[C@@H]3O", "value": ">250 µM"}
{"SMILES": "Nc1ncnc2c1ncn2[C@@H]1CO[C@@H](CO)S1", "value": ">395 µM"}
{"SMILES": "CC(C)CCS(=O)(=O)c1c(C(=O)NCc2[nH]nc3ccccc23)[nH]c2ccc(Cl)cc12", "method": "microscopy", "value": ">10 µM"}
{"SMILES": "CC1=C(C)CC(COCP(=O)(O)O)(n2ccc(N)nc2=O)C1", "method": "XTT", "value": ">100 µM"}
{"SMILES": "CSCC[C@H](NS(=O)(=O)c1ccc(C)cc1)c1n[nH]c(=S)o1", "value": "63 µg/mL"}
{"SMILES": "Cc1cn([C@@H]2O[C@H](CO)C3(OS(=O)(=O)C=C3N)[C@H]2O[Si](C)(C)C(C)(C)C)c(=O)[nH]c1=O", "value": "106 µg/mL"}
{"SMILES": "CC(=O)N1N=C(C2CCC3C4CC=C5C[C@@H](O)CC[C@]5(C)C4CC[C@]23C)CC1c1ccc(Br)cc1", "value": ">0.29 µM"}
{"SMILES": "Fc1cccc(F)c1Cn1c(-c2c(F)cccc2F)nc2ccccc21", "value": "33.63 µM"}
{"SMILES": "NC(=O)c1[nH]c2ccc(Cl)cc2c1S(=O)(=O)C1CCC1", "method": "microscopy", "value": ">10 µM"}
{"SMILES": "CCCCC1(CCc2cccc(NS(=O)(=O)c3ccc(C(F)(F)F)cn3)c2)COC(=O)C(C(CC)c2cccc(NS(=O)(=O)c3ccc(C(F)(F)F)cn3)c2)=C1O", "value": "33.7 µM"}
{"SMILES": "Cc1cn([C@@H]2O[C@@H]3CN[C@@]4(O)CS(=O)(=O)O[C@@]34[C@H]2O[Si](C)(C)C(C)(C)C)c(=O)[nH]c1=O", "value": ">250 µM"}
{"SMILES": "COCn1c(Cc2cccc3ccccc23)c(C(C)C)c(=O)[nH]c1=O", "value": "42.2 µM"}
{"SMILES": "Cc1cc(Cl)cc(C(=O)c2c(C(C)C)c(=O)[nH]c(=O)n2Cc2ccnc(C)c2)c1", "method": "MTT", "value": "93.75 µg/mL"}
{"SMILES": "Cc1cn([C@@H]2O[C@@H]3CN[C@@]4(OCCO)CS(=O)(=O)O[C@@]34[C@H]2O[Si](C)(C)C(C)(C)C)c(=O)[nH]c1=O", "value": "59 µM"}
{"SMILES": "Cc1ccc(-c2nnc(-c3ccc(NS(=O)(=O)c4ccc(C)cc4)cc3)o2)cc1", "value": "119 µg/mL"}
{"SMILES": "Cc1cn([C@@H]2O[C@@H]3CN[C@@]4(OCc5ccccc5)CS(=O)(=O)O[C@@]34[C@H]2O[Si](C)(C)C(C)(C)C)c(=O)[nH]c1=O", "value": "6.4 µM"}
{"SMILES": "Nc1nc2c(ncn2[C@H]2CS[C@@H](CO)O2)c(=O)[nH]1", "value": ">372 µM"}
{"SMILES": "Cc1cc(Cn2c(C(=O)c3cc(F)cc(F)c3)c(C(C)C)c(=O)[nH]c2=O)cc(C)n1", "method": "MTT", "value": "87.2 µg/mL"}
{"SMILES": "Cc1c(Cc2ccc3ccccc3c2)n(COCCO)c(=O)[nH]c1=O", "value": "143 µM"}
{"SMILES": "Cc1cc(F)cc(C(=O)c2c(C(C)C)c(=O)[nH]c(=O)n2Cc2ccnc(C)c2)c1", "method": "MTT", "value": "22.9 µg/mL"}
{"SMILES": "C[C@]12CCC3C(CC=C4C[C@@H](O)CC[C@@]43C)C1CCC2C(=O)/C=C/c1ccsc1", "value": ">125 µM"}
{"SMILES": "CCO[C@]12CS(=O)(=O)O[C@@]13C(CN2)O[C@@H](n1cc(C)c(=O)[nH]c1=O)[C@@H]3O[Si](C)(C)C(C)(C)C", "value": "24.8 µM"}
{"SMILES": "CCc1c(C(=O)c2cc(F)cc(F)c2)n(Cc2ccccn2)c(=O)[nH]c1=O", "method": "MTT", "value": "93.2 µg/mL"}
{"SMILES": "CC[C@@H](NS(=O)(=O)c1ccc(Cl)cc1)c1n[nH]c(=S)o1", "value": "122 µg/mL"}
{"SMILES": "NC(=O)c1[nH]c2ccc(Cl)cc2c1S(=O)(=O)CC1CC(F)(F)C1(F)F", "method": "microscopy", "value": ">10 µM"}
{"SMILES": "Cc1ccnc2c1NC(=O)c1cccnc1N2C1CC1", "value": ">4 µM"}
{"SMILES": "Cc1cc(Cl)cc(C(=O)c2c(C(C)C)c(=O)[nH]c(=O)n2Cc2cc(C)nc(C)c2)c1", "method": "MTT", "value": "8.68 µg/mL"}
{"SMILES": "Nc1nc(N)c2ncn([C@H]3CS[C@@H](CO)O3)c2n1", "value": ">373 µM"}
{"SMILES": "CCCCC1(CCc2cccc(NS(=O)(=O)c3ccc(C#N)cn3)c2)COC(=O)C(C(CC)c2cccc(NS(=O)(=O)c3ccc(C#N)cn3)c2)=C1O", "value": "65.7 µM"}
{"SMILES": "CCc1c(Cc2ccc3ccccc3c2)n(COCCO)c(=O)[nH]c1=O", "value": "182 µM"}
{"SMILES": "CCOC(=O)c1[nH]c2ccc(Cl)cc2c1S(=O)(=O)CC1CCCCC1", "method": "microscopy", "value": ">10 µM"}
{"SMILES": "COc1cc2nc(-c3c(F)cccc3F)n(Cc3c(F)cccc3F)c2cc1Cc1c(F)cccc1F", "value": "31.35 µM"}
{"SMILES": "O=c1[nH]cnc2c1ncn2[C@H]1CS[C@@H](CO)O1", "value": ">410 µM"}
{"SMILES": "O=C(O)c1ccc2nc(-c3c(F)cccc3F)n(Cc3c(F)cccc3F)c2c1", "value": "117 µM"}
{"SMILES": "CCO[C@]12CS(=O)(=O)O[C@@]13[C@@H](CN2)O[C@@H](n1ccc(=O)[nH]c1=O)[C@@H]3O[Si](C)(C)C(C)(C)C", "value": "119 µM"}
{"SMILES": "CC(C)c1c(C(=O)c2ccccc2)n(Cc2ccncc2)c(=O)[nH]c1=O", "method": "MTT", "value": "37.4 µg/mL"}
{"SMILES": "CCn1c(C)c(C(=O)OC)c(C(=O)OC)c1Cc1ccccc1", "value": "65 µM"}
{"SMILES": "Cc1cn([C@@H]2O[C@@H]3CN[C@@]4(C#N)CS(=O)(=O)O[C@@]34[C@H]2O)c(=O)[nH]c1=O", "value": ">250 µM"}
{"SMILES": "O=S(=O)(NCCCc1n[nH]c(=S)o1)c1ccc(Cl)cc1", "value": "74 µg/mL"}
{"SMILES": "Cc1cn([C@@H]2CS[C@@H](CO)O2)c(=O)[nH]c1=O", "value": ">410 µM"}
{"SMILES": "CCc1c(Sc2cc(C)cc(C)c2)n(Cc2ccncc2)c(=O)[nH]c1=O", "method": "MTT", "value": "12.5 µg/mL"}
{"SMILES": "Nc1nc(N)c2ncn([C@@H]3CS[C@@H](CO)O3)c2n1", "value": ">373 µM"}
{"SMILES": "Cc1cn([C@@H]2OC3CN[C@@]4(OCC(C)C)CS(=O)(=O)O[C@@]34[C@H]2O[Si](C)(C)C(C)(C)C)c(=O)[nH]c1=O", "value": "16 µM"}
{"SMILES": "Cc1cc(C#N)cc(C)c1Oc1nc(Nc2cccc(OS(=O)(=O)F)c2)nc2ccsc12", "method": "MTT", "value": "125 µM"}
{"SMILES": "C[C@]12CCC3C(CC=C4C[C@@H](O)CC[C@@]43C)C1CCC2C(=O)/C=C/c1ccccc1C(=O)O", "value": "13.98 µM"}
{"SMILES": "COCn1c(Cc2cccc3ccccc23)c(C)c(=O)[nH]c1=O", "value": "183 µM"}
{"SMILES": "CC1=C(C)CC(COCP(=O)(OCCSC(=O)C(C)(C)C)OCCSC(=O)C(C)(C)C)(n2ccc(N)nc2=O)C1", "method": "XTT", "value": "44 µM"}
{"SMILES": "Cc1cn([C@H]2C[C@H](N=[N+]=[N-])[C@@H](CO)O2)c(=O)[nH]c1=O", "value": ">25 µM"}

For reference, 7 entries again:

SMILES,method,value
Cc1cn([C@@H]2O[C@H](CO)C3(OS(=O)(=O)C=C3N)[C@H]2O[Si](C)(C)C(C)(C)C)c(=O)[nH]c1=O,-,106 µg/mL
Cc1c(Cc2ccc3ccccc3c2)n(COCCO)c(=O)[nH]c1=O,-,143 µM
CC(=O)N1N=C(C2CCC3C4CC=C5C[C@@H](O)CC[C@]5(C)C4CC[C@]23C)CC1c1ccc(Br)cc1,-,>0.29 µM
Cc1cc(C#N)cc(C)c1Oc1nc(Nc2cccc(OS(=O)(=O)F)c2)nc2ccsc12,MTT,125 µM
CCc1c(Cc2ccc3ccccc3c2)n(COCCO)c(=O)[nH]c1=O,-,182 µM
Cc1cn([C@@H]2O[C@@H]3CN[C@@]4(O)CS(=O)(=O)O[C@@]34[C@H]2O[Si](C)(C)C(C)(C)C)c(=O)[nH]c1=O,-,>250 µM
Cc1cn([C@@H]2CS[C@@H](CO)O2)c(=O)[nH]c1=O,-,>410 µM